Mtb glucose medium: 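Phenotypic screen: M. tuberculosis growth, glucose 7H9 medium, 3 days; the read-out is not stated. Concentration: 500 µM. Direction is inferred from retests: higher values go with more growth inhibition. Of about 18,000 compounds tested this way, about 1,400 (7.9%) reached 50% or more in at least one test.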
Mtb cholesterol medium: 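Whole-cell growth test on Mycobacterium tuberculosis, read after 4 days in a medium based on cholesterol and the lipid DPPC; the read-out is not stated. Concentration: 500 µM. The record gives no direction; compounds that gave an IC50 in retests scored well above the rest, so higher reads as more growth inhibition. About 18,000 compounds were tested under these conditions; 5% (about 900) showed 50% or more at least once.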

Results are given as percent effect.
The controls that fix the scale are not given in the record; negative values are as filed.
This is part of a subset picked to be rich in strong results.
A dash means the value is not listed here; it may have been measured.

| # | structure | Mtb glucose medium | Mtb cholesterol medium |
|---|---|---|---|
| 1 | `CCC(CC)(CC)SCC(=O)N1CCNC(=O)C1` | -8.512% | - |
| 2 | `CC(C)(C)NC(=O)C1CCCCN1` (stereo not drawn) | -2.483% | - |
| 3 | `O=C1OCCC1Sc1nnc(Nc2ccccc2)s1` (stereo not drawn) | 54.16% | - |
| 4 | `CC(C)N(C)S(=O)(=O)N1CCc2sccc2C1C` (stereo not drawn) | 83.66% | 84.37% |
| 5 | `NC(=O)N(Cc1cccs1)CC1CCCO1` (stereo not drawn) | 7.295% | - |
| 6 | `CC(O)CN1CCC(CN(C)Cc2nccn2C)CC1` (stereo not drawn) | - | -7.496% |
| 7 | `CCCn1nnc(NCc2ccc(OC)cc2)n1` | 87.51% | 76.83% |
| 8 | `Cc1noc(C)c1S(=O)(=O)N1CCC(C(N)=O)C1` (stereo not drawn) | - | -21.57% |
| 9 | `COc1cc(Br)c(S(=O)(=O)N2CCOCC2)cc1OC` | - | 14.17% |
| 10 | `Cc1nc(N)nc(C)c1CC(=O)N[C@H]1C[C@@H]2OCC[C@H]12` | 14.74% | - |
| 11 | `NCc1cccc(-c2cccnc2)c1` | 37% | 23.4% |
| 12 | `c1cncc(-c2ccnn2CN2CCSCC2)c1` | - | 6.713% |
| 13 | `CNCC(=O)NC(Cc1cccc(OC)c1)C1CC1` (stereo not drawn) | 32.82% | - |
| 14 | `O=C(NCC1CCCO1)N1CCC2(C1)OCCO2` (stereo not drawn) | 1.617% | - |
| 15 | `CS(=O)(=O)N1CCN(CCn2cncn2)CC1` | - | 7.109% |
| 16 | `CN(C)C(=O)C1CCCN(Cc2cccc(F)c2)C1` (stereo not drawn) | - | -5.065% |
| 17 | `O=C(CCCN1CCCCC1)NCCc1cnccn1` | 4.841% | - |
| 18 | `O[C@H]1CC[C@@H](c2nc(C3CCOC3)n[nH]2)CC1` (stereo partly drawn) | 3.942% | - |
| 19 | `O=S(=O)(CCNCc1cc[nH]c1)N1CCSCC1` | 14.33% | - |
| 20 | `CS(=O)(=O)NCC1CCCN(c2ccncc2Cl)C1` (stereo not drawn) | 34.72% | 24.25% |
| 21 | `O=C(N1CCNCC1)C1(c2ccc(F)cc2F)CCC1` | 4.341% | - |
| 22 | `CC1CCCN(S(=O)(=O)N(C)Cc2cc[nH]n2)C1` (stereo not drawn) | 36.29% | - |
| 23 | `CN(CC(N)=O)Cc1cccc(C#N)c1` | 13.48% | 18.5% |
| 24 | `O=C(Cc1cccs1)NCC1CCCCC(=O)N1` (stereo not drawn) | 5.062% | - |
| 25 | `CC(=O)c1cc(C(=O)NCCSC(F)(F)F)[nH]n1` | 60.82% | 55.94% |
| 26 | `Cc1cc(NC2CCC(=O)N(C)C2)nc(C)n1` (stereo not drawn) | - | -13.7% |
| 27 | `C[C@@H](CO)Nc1ncc(Cl)cc1Br` | 56.89% | 58.35% |
| 28 | `O=C(NCc1nnc2n1CCC2)c1sccc1C1CC1` | - | 7.172% |
| 29 | `Cc1cccc(CC(=O)NCC2CCNCC2)c1` | 1.16% | 18.28% |
| 30 | `COCC1CCCN(C(=O)Cc2ccccc2O)C1` (stereo not drawn) | 15.71% | - |
| 31 | `Nc1nc(CCNC(=O)CSCCN2CCCC2)cs1` | 21.1% | - |
| 32 | `COc1cc(S(=O)(=O)NCc2ccnn2C)ccc1F` | - | 7.06% |
| 33 | `CC(NC(=O)CSc1nnnn1C1CC1)c1cccs1` (stereo not drawn) | 64.71% | 48.68% |
| 34 | `CN(CCc1cccs1)CC(=O)NC1CCS(=O)(=O)C1` (stereo not drawn) | 15.75% | - |
| 35 | `C[C@H](N)C(=O)NCCO` | 7.865% | - |
| 36 | `CCOc1cccc(CSC(C)CO)n1` (stereo not drawn) | 39.29% | 36.48% |
| 37 | `CCn1cnnc1CNC(=O)N1CCN(C)CC1C` (stereo not drawn) | -0.774% | - |
| 38 | `Brc1ccc(CN2CCNCC2)nc1` | 13.25% | - |
| 39 | `c1cc2c(cc1-c1nc3c([nH]1)CCNC3)OCO2` | - | -0.2435% |
| 40 | `CCC1CN(C)c2ccccc2CN1CCS(C)(=O)=O` (stereo not drawn) | -5.255% | - |
| 41 | `NC(CO)c1c(F)cccc1F` (stereo not drawn) | -1.809% | - |
| 42 | `COCC(O)CN(C)Cc1cccc(NC(C)=O)c1` (stereo not drawn) | 19.26% | - |
| 43 | `Cc1cc2cc(C(=O)N3CCS(=O)(=O)CC3)ccc2o1` | - | 8.919% |
| 44 | `CN(C(=O)c1ccc(Cl)cc1)c1nncs1` | -11.05% | - |
| 45 | `O=C(Cc1ccccc1F)Nc1ccon1` | 15.3% | 9.393% |
| 46 | `CS(=O)(=O)NCCNc1nc2ccccc2s1` | 24.5% | - |
| 47 | `Cn1cccc1C1COCCN1CC1OCCO1` (stereo not drawn) | - | -19.03% |
| 48 | `Cc1cc(C)n(CCCC(=O)N[C@@H]2COCC[C@H]2O)n1` | - | -13.68% |
| 49 | `CN(CC(C)(C)O)C(=O)NCC[S+]([O-])c1ccccc1` (stereo not drawn) | -0.000853% | - |
| 50 | `NCc1ccnc(N)c1` | 17.81% | - |
| 51 | `CCOc1ccc(Cl)cc1C(N)=O` | 30.21% | - |
| 52 | `COc1ccnc(NC(=O)c2sccc2OC)c1` | -0.8259% | -12.62% |
| 53 | `c1cnc(C2CCCN2)nc1` (stereo not drawn) | -1.501% | - |
| 54 | `CC(O)c1nnc[nH]1` (stereo not drawn) | 6.024% | - |
| 55 | `Cc1ccc(C)c(OC(C)C(=O)NCCS(C)(=O)=O)c1` (stereo not drawn) | - | 8.321% |
| 56 | `CS(=O)(=O)N1CCC(NCCSc2cnn[nH]2)CC1` | - | 61.06% |
| 57 | `CN1CCC(N2CCN(C)c3ccccc3C2)C1=O` (stereo not drawn) | 25.6% | 17.12% |
| 58 | `NC(=O)c1ncsc1Cl` | 3.827% | - |
| 59 | `Fc1cccnc1NCc1cc[nH]n1` | 15.15% | 4.762% |
| 60 | `CC1=NN(C(=O)Cn2cc(C)cn2)C(O)(C(F)F)C1` (stereo not drawn) | - | 21.91% |
| 61 | `COCCC(=O)Nc1ncn(Cc2ccc(Cl)cc2)n1` | - | 6.878% |
| 62 | `CN(C)Cc1ccccc1CNC(=O)C1CCC1` | - | -2.857% |
| 63 | `Cc1nccc(N2CCN(C(=O)C3CC=CC3)CC2)n1` | - | 10.89% |
| 64 | `CN(C)c1ncccc1CNS(=O)(=O)c1cnn(C)c1` | -1.412% | - |
| 65 | `CN1CCCC2(CCN(C(=O)N3CCCC3)C2)C1=O` (stereo not drawn) | 4.425% | - |
| 66 | `CCNC(=O)c1ccc(OCCOCC)cc1` | 37.56% | - |
| 67 | `CCN(CC)S(=O)(=O)CCNC(=O)c1nccnc1N` | - | -0.8748% |
| 68 | `COCc1nn(Cc2cccc3cccnc23)c(=O)o1` | 69.38% | 72.34% |
| 69 | `COCC(=O)Nc1cccc(CN(C)C(C)=O)c1` | 4.078% | - |
| 70 | `NCc1ccc(S(=O)(=O)N2CCOCC2)cc1` | 7.558% | - |
| 71 | `N#CCCN(CC1CC1)C(=O)c1cc(I)c[nH]1` | 21.08% | -4.97% |
| 72 | `CCCNC(=O)CCNC(=O)c1ccc(O)cc1C` | 11.96% | - |
| 73 | `CNS(=O)(=O)c1ccc(C(=O)Nc2ccc(F)cc2)o1` | 54.61% | 43.9% |
| 74 | `CCC(N)(CC)CNS(=O)(=O)c1cccnc1` | - | -2.214% |
| 75 | `Cc1ccc(Cl)c(OCC(=O)NN2CCOCC2)c1` | 0.3023% | - |
| 76 | `COC1CCC(CCN)CC1` (stereo not drawn) | 10.6% | - |
| 77 | `O=S(=O)(CCNc1ccccn1)NCC1CCC1` | 72% | 62.91% |
| 78 | `CC(C)C(NCCCF)C(=O)N1CCOCC1` (stereo not drawn) | -9.721% | - |
| 79 | `COC(=O)CNC(C)c1c(F)cccc1OC` (stereo not drawn) | -16.98% | -19.62% |
| 80 | `COC(=O)CNc1ccc(Cl)cc1C(N)=O` | 32.32% | - |
| 81 | `CC1(C)CN(C(=O)C2CC2)CCO1` | 2.562% | - |
| 82 | `CN(Cc1ccccc1)C(=O)c1cnn(C)c1` | 43.28% | - |
| 83 | `CCOc1cccc(N2CCNCC2)c1` | 23.34% | - |
| 84 | `C[C@@H](N)c1ccc(F)cn1` | 12.73% | - |

The first 11 entries again:

structure	Mtb glucose medium	Mtb cholesterol medium
CCC(CC)(CC)SCC(=O)N1CCNC(=O)C1	-8.512%	-
CC(C)(C)NC(=O)C1CCCCN1 (stereo not drawn)	-2.483%	-
O=C1OCCC1Sc1nnc(Nc2ccccc2)s1 (stereo not drawn)	54.16%	-
CC(C)N(C)S(=O)(=O)N1CCc2sccc2C1C (stereo not drawn)	83.66%	84.37%
NC(=O)N(Cc1cccs1)CC1CCCO1 (stereo not drawn)	7.295%	-
CC(O)CN1CCC(CN(C)Cc2nccn2C)CC1 (stereo not drawn)	-	-7.496%
CCCn1nnc(NCc2ccc(OC)cc2)n1	87.51%	76.83%
Cc1noc(C)c1S(=O)(=O)N1CCC(C(N)=O)C1 (stereo not drawn)	-	-21.57%
COc1cc(Br)c(S(=O)(=O)N2CCOCC2)cc1OC	-	14.17%
Cc1nc(N)nc(C)c1CC(=O)N[C@H]1C[C@@H]2OCC[C@H]12	14.74%	-
NCc1cccc(-c2cccnc2)c1	37%	23.4%

Measurements from “University of Dundee, Small-Polar-MMV Screening Library” (2021), ChEMBL document CHEMBL3988442.